Measured values from several laboratories, pooled; numbers as filed in NIAID ChemDB.

All rows: whole-cell or culture tests; organism: Cryptococcus neoformans; read-out: MIC

Neighbouring rows are from separate reports.

smiles | strain | result
Cc1nnc(NS(=O)(=O)c2ccc(N)cc2)s1 | IFM 40216 | ≥256 µg/mL
C[C@@H]([C@@](O)(Cn1cncn1)c1ccc(F)cc1F)S(C)(=O)=O | R716 (AZOLE-R) | >1000 µM
O=C1/C(=C/c2ccc(Cl)cc2)CCc2ccccc21 | 25 | 6 µg/mL
NC(=O)C1=C(O)OC2=C(CSc3ccccc32)C1c1ccccc1 | Farwania | 12.5 µg/mL
O=C1/C(=C/c2ccc3c(c2)OCO3)CSc2ccccc21 | Farwania | 12.5 µg/mL
N#CC1=C(N)OC2=C(CSc3ccc(Cl)cc32)C1c1cccc2ccccc12 | 25 | 25 µg/mL
O=C1/C(=C/c2ccccc2)CCc2ccccc21 | 93/V | 25 µg/mL
CC[C@@H]([C@H](C)O)n1ncn(-c2ccc(N3CCN(c4ccc(OC[C@@H]5CO[C@@](Cn6cncn6)(c6ccc(F)cc6F)C5)cc4)CC3)cc2)c1=O | 85-569 | 0.125 µg/mL
COc1ccc(-c2c(C#N)c(OC)nc3c2CSc2ccc(Cl)cc2-3)cc1OC | 25 | 6 µg/mL
C[C@@H](n1ncn(-c2ccc(OCC(F)(F)C(F)F)cc2)c1=O)[C@](O)(Cn1cncn1)c1ccc(F)cc1F | DUMC 135.97 | 0.125 µg/mL
O=C1/C(=C/c2ccc(O)cc2)COc2ccccc21 | 25 | 6 µg/mL
C=CC[C@@H]1/C=C(/C)C[C@H](C)C[C@H](OC)[C@H]2O[C@@](O)(C(=O)C(=O)N3CCCC[C@H]3C(=O)O[C@H](/C(C)=C/[C@@H]3CC[C@@H](O)[C@H](OC)C3)[C@H](C)[C@@H](O)CC1=O)[C@H](C)C[C@@H]2OC | C21F3 | 100 µg/mL
CCCCCOc1ccc(-c2cc(-c3ccc(C(=O)N[C@H]4C[C@@H](O)[C@@H](O)NC(=O)[C@@H]5[C@@H](O)[C@@H](C)CN5C(=O)[C@H]([C@H](O)CC(N)=O)NC(=O)[C@H]([C@H](O)[C@@H](O)c5ccc(O)c(OS(=O)(=O)O)c5)NC(=O)[C@@H]5C[C@@H](O)CN5C(=O)[C@H]([C@@H](C)O)NC4=O)cc3)no2)cc1 | FMR 8401 | 64 µg/mL
COc1nc2c(c(-c3ccccc3)c1C#N)CSc1ccccc1-2 | 93/V | 50 µg/mL
O=C1/C(=C/c2ccc(Cl)cc2)COc2ccccc21 | Farwania | 6 µg/mL
COc1ccccc1-c1c(C#N)c(OC)nc2c1CSc1ccc(Cl)cc1-2 | 25 | 6 µg/mL
COc1cc(/C=C2\COc3ccccc3C2=O)ccc1O | 93/V | 25 µg/mL
COc1nc2c(c(-c3ccc4c(c3)OCO4)c1C#N)CSc1ccccc1-2 | 25 | 3 µg/mL
COc1ccc(/C=C2\CS(=O)(=O)c3ccccc3C2=O)cc1 | 25 | 25 µg/mL
Cc1cc(NS(=O)(=O)c2ccc(N)cc2)nc(C)n1 | IFM 40215 | ≥256 µg/mL
COc1nc2c(c(-c3ccc4ccccc4c3)c1C#N)CSc1ccc(Cl)cc1-2 | 93/V | 25 µg/mL
Cc1noc(NS(=O)(=O)c2ccc(N)cc2)c1C | IFM 51976 | 128 µg/mL
COc1ccc2c(c1)C(=O)/C(=C/c1ccc3c(c1)OCO3)CS2 | 25 | 12.5 µg/mL
Cc1cc(NS(=O)(=O)c2ccc(N)cc2)no1 | IFM 49722 | 32 µg/mL
CCOc1nc2c(c(-c3ccc4ccccc4c3)c1C#N)CSc1ccc(Cl)cc1-2 | 93/V | 50 µg/mL

A second listing of 3 rows from above:

smiles | strain | result
Cc1noc(NS(=O)(=O)c2ccc(N)cc2)c1C | IFM 51976 | 128 µg/mL
COc1ccccc1-c1c(C#N)c(OC)nc2c1CSc1ccc(Cl)cc1-2 | 25 | 6 µg/mL
NC(=O)C1=C(O)OC2=C(CSc3ccccc32)C1c1ccccc1 | Farwania | 12.5 µg/mL